Test results: ChEMBL document CHEMBL3393002, “Diaminopyrimidines, diaminopyridines and diaminopyridazines as histamine H4 receptor modulators” (Bioorg Med Chem Lett, 2015)

The chains behind the UniProt entries cited, without tags or fusion partners. Where a name states a change or a piece, a line headed by the entry shows the natural chain unless it says otherwise.
UniProt Q9H3N8: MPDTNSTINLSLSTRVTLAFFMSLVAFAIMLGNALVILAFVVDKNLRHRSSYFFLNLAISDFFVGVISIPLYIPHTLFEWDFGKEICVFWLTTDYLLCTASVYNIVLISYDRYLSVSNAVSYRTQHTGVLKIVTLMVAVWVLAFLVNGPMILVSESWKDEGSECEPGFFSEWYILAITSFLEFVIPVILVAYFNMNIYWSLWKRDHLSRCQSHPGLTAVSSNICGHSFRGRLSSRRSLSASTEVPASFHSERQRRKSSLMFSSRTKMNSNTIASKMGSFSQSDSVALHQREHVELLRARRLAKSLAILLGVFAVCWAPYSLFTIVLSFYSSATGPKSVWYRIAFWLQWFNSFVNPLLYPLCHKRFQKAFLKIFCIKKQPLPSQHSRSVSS

Legend:
Histamine H4 receptor [1] = target: T1, Histamine H4 receptor (Homo sapiens, UniProt Q9H3N8); assay: Antagonist activity at human recombinant histamine H4 receptor expressed in SK-N-MC cells assessed as inhibition of forskolin-stimulated cAMP-mediated reporter gene activity; assay type: functional, cell-based; details: read-out: pA2 (converted)
Histamine H4 receptor [2] = target: T1, Histamine H4 receptor; assay: Displacement of [3H]histamine from human recombinant histamine H4 receptor
Histamine H4 receptor [3] = target: T1, Histamine H4 receptor; assay: Agonist activity at human recombinant histamine H4 receptor expressed in SK-N-MC cells assessed as effect on forskolin-stimulated cAMP-mediated reporter gene activity; assay type: functional, cell-based

Structure (SMILES)	Kb (Histamine H4 receptor [1])	Ki (Histamine H4 receptor [2])	EC50 (Histamine H4 receptor [3])
CN[C@@H]1CCN(c2ccnc(NCC(C)C)c2)C1	631 nM		
CN[C@@H]1CCN(c2ccnc(NC3CCCC3)c2)C1	1000 nM	4 nM	> 10000 nM
CN[C@H]1CCN(c2ccnc(NC3CCCC3)c2)C1		33 nM	> 10000 nM
CN[C@@H]1CCN(c2cnnc(NC3CC4CCC3C4)c2)C1 (stereo partly specified)	10 nM	8 nM	1000 nM
CN[C@H]1CCN(c2cnnc(NC3CC4CCC3C4)c2)C1 (stereo partly specified)		5 nM	> 10000 nM
